Experimental data published in PMC13635753, “Mechanism of NanR transcriptional activation of sialic acid metabolism in Streptococcus pneumoniae” (Nucleic Acids Research, 2025).

Sequences of proteins named here, by UniProt entry; tags and fusion partners are left off. Residues count along the entry.
UniProt A0A4M6CQT5, 1-283: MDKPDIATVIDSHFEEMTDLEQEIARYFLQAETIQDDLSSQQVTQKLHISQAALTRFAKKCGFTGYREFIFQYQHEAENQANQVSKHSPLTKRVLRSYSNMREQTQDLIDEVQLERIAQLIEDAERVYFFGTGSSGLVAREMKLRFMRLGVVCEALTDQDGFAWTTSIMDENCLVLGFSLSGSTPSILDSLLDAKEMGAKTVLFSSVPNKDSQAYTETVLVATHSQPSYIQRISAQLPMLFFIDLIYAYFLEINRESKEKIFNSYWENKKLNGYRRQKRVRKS

Biological target: SpNanR (Streptococcus pneumoniae, UniProt A0A4M6CQT5)
Assay: differential scanning fluorimetry (SYPRO Orange)
Conditions: 1 mM ligand, 20 μM protein

CC(=O)N[C@@H]1C(O)O[C@H](COP(=O)(O)O)[C@@H](O)[C@@H]1O (stereo partly shown)
dTm: +4.1 °C
